Compound potency records, mixed from different reports. Data source: NIAID ChemDB in PubChem.

Shared fields: tests on isolated targets; organism: Toxoplasma gondii

Percent inhibition refers to the dose given; in toxicity tests it is the harm to the cells. ICn is the concentration giving n% inhibition. Conditions beyond the fields shown may differ between rows. Blank or dashed fields: not listed here.

SMILES | dose | strain | target | measure | value
CN1C(=O)N(C)C(=O)C(C)(NS(=O)(=O)c2ccc(N)cc2)C1=O | 510 µM |  | DHPS | inhibition | 75%
Cc1ncnc2nc[nH]c12 |  | RH | Phosphoribosyltransferase | IC50 | >900 µM
O=c1cn[nH]c(=O)[nH]1 |  | RH | Uracil phosphoribosyltransferase | IC50 | >2000 µM
CN1CNc2[nH]c(=O)[nH]c(=O)c21 |  | RH | Phosphoribosyltransferase | Ki | 1900 µM
COc1cc(OC)nc(NS(=O)(=O)c2ccc(N)cc2)n1 |  |  | DHPS | IC50 | 1800 µM
Cc1cc(=O)[nH]c(=O)[nH]1 |  | RH | Uracil phosphoribosyltransferase | IC50 | >2000 µM
Nc1ncnc2nc[nH]c12 | 900 µM | RH | Phosphoribosyltransferase | inhibition | <10%
COc1ccnc(OC)n1 | 2000 µM | RH | Uracil phosphoribosyltransferase | inhibition | <5%
O=c1[nH]c2nc[nH]c(=O)c2[nH]1 |  | RH | Phosphoribosyltransferase | Ki | 4100 µM
Oc1cccc(O)c1 | 2000 µM | RH | Uracil phosphoribosyltransferase | inhibition | <5%
Nc1ccc(S(=O)(=O)Nc2ccc(S(=O)(=O)O)cc2)cc1 |  |  | DHPS | IC50 | >520 µM
Cc1cc2c(cc1C)-c1c(N)nc(N)nc1CC2 |  | RH | DHFR | IC50 | 0.038 µM
Nc1ccnc(=O)[nH]1 | 2000 µM | RH | Uracil phosphoribosyltransferase | inhibition | <5%
Cc1nc(NS(=O)(=O)c2ccc(N)cc2)nc(C)c1Br |  |  | DHPS | IC50 | 230 µM
CN(Cc1cnc2nc(N)nc(N)c2n1)c1ccc(C(=O)NC(CCC(=O)NC(CCC(=O)O)C(=O)O)C(=O)O)cc1 |  | RH | DHFR | IC50 | 0.0027 µM
Nc1ncc[nH]1 |  | RH | Phosphoribosyltransferase | IC50 | >900 µM
CCc1nc(N)nc(N)c1-c1ccc(Cl)c(Cl)c1 |  | RH | DHFR | IC50 | 0.094 µM
O=c1[nH]c(=O)[nH]c(=O)[nH]1 | 2000 µM | RH | Uracil phosphoribosyltransferase | inhibition | <10%
Nc1nc(N)c2c(Cl)c(CNc3ccc(C(=O)NC(CC(=O)O)C(=O)O)cc3)ccc2n1 |  | RH | DHFR | IC50 | 0.0011 µM
Cn1c(=O)c2[nH]c(=O)[nH]c2n(C)c1=O | 900 µM | RH | Phosphoribosyltransferase | inhibition | <10%
Nc1[nH]c(=S)[nH]c(=O)c1N=O | 2000 µM | RH | Uracil phosphoribosyltransferase | inhibition | <5%
Nc1nc(N)c(-c2ccc(Cl)cc2)c(CNc2cccc([N+](=O)[O-])c2)n1 |  | RH | DHFR | IC50 | 1.49 µM
CCCc1cc(=O)[nH]c(=S)[nH]1 |  | RH | Uracil phosphoribosyltransferase | Ki | 1700 µM
CN(Cc1cnc2nc(N)nc(N)c2n1)c1ccc(C(=O)N[C@@H](CCC(=O)O)C(=O)O)cc1Br |  | RH | DHFR | IC50 | 0.00095 µM

For reference, 3 entries again:

SMILES	dose	strain	target	measure	value
O=c1cn[nH]c(=O)[nH]1		RH	Uracil phosphoribosyltransferase	IC50	>2000 µM
Cc1ncnc2nc[nH]c12		RH	Phosphoribosyltransferase	IC50	>900 µM
Nc1ccc(S(=O)(=O)Nc2ccc(S(=O)(=O)O)cc2)cc1			DHPS	IC50	>520 µM